Chains of the proteins cited; added tags and fusions are not shown.
UniProt C3W5S1, entry or part of it, added parts left off: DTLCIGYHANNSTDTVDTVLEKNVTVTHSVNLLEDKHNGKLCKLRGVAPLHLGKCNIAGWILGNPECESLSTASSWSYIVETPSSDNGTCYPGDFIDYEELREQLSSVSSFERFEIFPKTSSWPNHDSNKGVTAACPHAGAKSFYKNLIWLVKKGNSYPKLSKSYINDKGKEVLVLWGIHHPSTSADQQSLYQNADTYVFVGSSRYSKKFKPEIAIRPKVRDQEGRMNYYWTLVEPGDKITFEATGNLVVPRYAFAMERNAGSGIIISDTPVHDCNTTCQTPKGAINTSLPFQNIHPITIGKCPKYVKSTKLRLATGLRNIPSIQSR

In patent US9822155B2 (priority 2013, dated 2017):

Tests used:
[1] = system: influenza A virus subtypes H3N2, H5N1, H7N7 and H7N9; experiment: Plaque assay against other influenza A subtypes in MDCK cells
H1N1 viral HA = H1N1 viral HA (Influenza A virus, UniProt C3W5S1); experiment: Binding to viral protein HA by Western blot and ELISA; conditions: Western blot (P9 50 μg/ml) and ELISA
H1N1 viral NA = experiment: Binding to viral protein NA by Western blot and ELISA; conditions: Western blot (P9 50 μg/ml) and ELISA

Structure (SMILES): CC[C@H](C)[C@H](NC(=O)[C@H](C)NC(=O)CNC(=O)[C@@H](N)CC(N)=O)C(=O)N[C@@H](CS)C(=O)N[C@@H](Cc1c[nH]c2ccccc12)C(=O)NCC(=O)N1CCC[C@H]1C(=O)N[C@@H](CS)C(=O)N1CCC[C@H]1C(=O)N[C@H](C(=O)N[C@@H](C)C(=O)N[C@@H](Cc1ccccc1)C(=O)N[C@@H](CCCNC(=N)N)C(=O)N[C@@H](CCC(N)=O)C(=O)N[C@H](C(=O)NCC(=O)N[C@@H](CC(N)=O)C(=O)N[C@@H](CS)C(=O)NCC(=O)N[C@@H](Cc1c[nH]cn1)C(=O)N[C@@H](Cc1ccccc1)C(=O)N[C@@H](CCCCN)C(=O)N[C@H](C(=O)N[C@@H](CCCNC(=N)N)C(=O)N[C@@H](CS)C(=O)N[C@@H](CS)C(=O)N[C@@H](CCCCN)C(=O)N[C@H](C(=O)N[C@@H](CCCNC(=N)N)C(=O)O)[C@@H](C)CC)C(C)C)[C@@H](C)CC)[C@@H](C)O [Peptide P9]
- inhibition of virus replication and release (viral loads in cells and supernatants) (H1N1 virus; P9 25 μg/ml maintained in culture media after infection, 0.3 MOI (P9-maint)): no significant inhibitory effects
- virus infection (viral loads in cells and supernatants) (H1N1 virus; cells pretreated with P9 25 μg/ml for 1 hour, 0.3 MOI (P9-cell-pre)): not inhibited
- viral loads inside the cells and in culture supernatants (H1N1 virus; virus 0.3 MOI pretreated with P9 25 μg/ml for 1 hour (P9-virus-pre)): significantly reduced
- antiviral efficacies against other influenza A subtypes [1]: strong antiviral efficacies
- binding to viral surface glycoprotein HA (H1N1 viral HA): bound to viral surface glycoprotein HA
- binding to NA (H1N1 viral NA): could not bind to NA
